# Reference: paper PMC12510602
# The exact form of at least one protein or probe is not confirmed.
# Assays:
# [1] = system: NcMYC (Nephotettix cincticeps); experiment: EMSA; conditions: 50 mM Tris-HCl pH 7.5, 5 mM EDTA, 10 mM MgCl2, 0.5 M NaCl, 5 mM DTT, 0.05 mg/mL poly(dI-dC), 20 ul, room temperature 30 min, 6% native PAGE, recombinant …
# [2] = system: NcSMARCB1 (Nephotettix cincticeps); experiment: EMSA; conditions: 50 mM Tris-HCl pH 7.5, 5 mM EDTA, 10 mM MgCl2, 0.5 M NaCl, 5 mM DTT, 0.05 mg/mL poly(dI-dC), 20 ul, room temperature 30 min; 6% native PAGE; recombinant …; protein details: His (Ni resin, pET28a); label: 5'-Cy5
sequence,measurement,setting,value
CTCTCCTCCTTCCTCTCCGCTCCTCACCACGTGGGTTTGTTGAGTGGGAG (double strand) [NcATG8-Prob],binding result,[1]; label: 5'-Cy5,binds
TTATGTTATGTATGTGAGTCAAGTGATCCGAAGCAATTGCAACTAACAAG (double strand) [NcATG5-Prob2],binding result,[2],binds
TTATAAGGAAAACTAGTTATTTTAGTTAAAAACGAAACACATGCATCACA (double strand) [NcATG5-Prob1],binding result,[1]; label: 5'-Cy5 (FAM also mentioned),binds
